# Laboratory results reported in patent US20150086555A1 (THERACLONE SCIENCES, published 2015).
# B1: TCN-533 (5256_A17a) (antibody, V domains shown)
# VH: QVQLVQSGADVKKPGSSVTVSCKASGGSFSNYGINWVRQAPGQGLEWMGGIIPLINAPNYAPKFQGRVTITADMFSNIVSLQLTSLRTDDTAVYYCARRKMTTAIDYWGQGTLVTVSS
# VL: QPVLTQPPSASASLGASVTLTCTLSSAYSNYKVDWYQQRPGKGPRFVMRVGTGGIVGSKGDGIPDRFSVLGSGLNRYLTIKNIQEEDESDYHCGADHGSGSNFVSPYVFGGGTKLTVL
# B2: TCN-522 (3212_I12) (antibody, V domains shown)
# VH: QVQLQQWGAGLLKPSETLSLTCTVSGGSLTDYSWNWIRQPPGKGLEWIGDTLHNGYTNYNPSLRGRVSISIDTSKNQVSLRLTSVTAADTALYYCARGSGGYGGFDYFGKLRTWDFWGQGTLVTVSS
# VL: DIQLTQSPSSLSASVGDRVTITCRASQGIRNDLGWYQQKPGNAPKRLIFGASSLQSGVPSRFSGSGSGTEFTLTISSLQPEDFATYYCLQHNSYPYTFGQGTKLEIK
# B3: TCN-530 (5248_H10a) (antibody, V domains shown)
# VH: QVQLVQSGAEVRKPGSSVKVSCKASGGPFMSYAIGWVRQAPGQGLEWMGGINPVFGRPHYAQKFQGRVTIATDDSTKTSYMELSSLTSEDTGMYYCASRYSRSSPGTFESWGQGTLVTVSS
# VL: EIVMTQFPATLSVSPGERVTLSCRASQSVSNNLAWYQQKPGQPPRLLIYDASTRATGVPAKFSGTGSGTEFTLSISSLQSEDFAVYYCQQYHNWPPSYSFGLGTKLEIK
# B4: TCN-534 (5249_B02) (antibody, V domains shown)
# VH: QVQLVQSGAEVKKPGSSVKVSCRESGGTFNGYTITWVRQAPGQGLEWMGGIIPMMGTVNYAQKLQGRVTITTDYFTKTAYMDLNNLRSEDTAMYYCVKIRYTGQQLLWGQGTLVTVSS
# VL: DIQMTQSPSTLSASIGDRVTITCRASQSIASWLAWYQQKPGKAPKLLIYEAVNLESGVPSRFSGSGSGTDFTLTISSLQPDDFATYFCQHYGTISQTFGGGTKVEIK
# B5: TCN-553 (5261_C18) (antibody, V domains shown)
# VH: QVQVVQSGTEVKKPGSSVKVSCQTSGGRFMSYAITWVRQAPGQGLEWMGGIVPVFGTANYAQKFQGRVTITTDDSTRTAYMELSSLRSEDTAVYYCGFRYGSGYGFDSWGQGTLVTVSS
# VL: EIVLTQSPGTLSLSPGERATLSCRASQSVSSSYLAWYQKKPGQAPRLLIYGASTRATGIPDRFTGSGSGTDFTLSISRLEPEDFAVYYCQHFGTSVFTFGGGTKVEIK
# B6: TCN-545 (5082_I15) (antibody, V domains shown)
# VH: QVQLQQWGAGLLKPSETLSLSCAVFGGSFSDYYWTWIRQPPGKGLEWIGEIKHSGRTNYNPSLESRVTISVDTSKNQFSLKLSSVTAADTAIYYCARGTDPDTEGYCRSGSCSAFDFWGQGTLVTVSS
# VL: EIVLTQSPGTLSLSPGERATLSCRASHFVNYRSLAWYQQTPGQVPRLLIYGASTRATGIPDRFSGSGSGTDFTLTISRLEPEDFAVYFCQQYGGSPRYTFGQGTRLEIK
# B7: TCN-546 (5089_L08) (antibody, V domains shown)
# VH: QVQLQQWGAGLLKPSETLSLTCGVYGGSLSDYYWSWIRQPPGKGLEWIGEINHSGGTNYNPSLKRRVTISVDTSKKQFSLKMNSVTAADTAVYYCARGTDPDTEVYCRAGNCAAFDFWGQGTLVTVSS
# VL: EIVLTQSPGTLSLSPGERATLSCRASHFVIGRAVAWYQQKPGQAPRLLIYGASSRATGIPDRFSGSGSGTDFTLTISRLETEDFAVFYCQHYGSSPRYAFGQGTKLEIK
# B8: TCN-554 (5277_M05) (antibody, V domains shown)
# VH: QVQLVQSGADLKKPGASVKVSCKASGYTFTDYYIHWVRQAPGQGLEWMGWINPESGDTKYAQKFQGRVTMTRDTSITTAYMELGRLRSDDTAVYYCARDVSTTWSWFAPWGQGTLVTVSS
# VL: DIVMTQSPDSLAVSLGERATINCRSSQSIFHNSNNENYLAWYQQKPGQPPKLLIYWASTRESGVPDRFSGSGSGTDFTLTISSLQAEDVAVYFCQQYYNAPLTFGGGTKVEIK
# B9: TCN-547 (5092_F11) (antibody, V domains shown)
# VH: QVQLQESGPGLVKPSQTLSLTCTVSGDSISSVDHYWSWIRQHPVKGLEWIGFMYYSASTYYNPSLKSRVTISTDTSKNQFSLRLSSVTAADTAVYYCARGTCAGDCSLHYYYYGLDVWGQGRTVTVSS
# VL: DIQMTQSPSSLSASVGDRVTITCRASQSISSYLNWYQHKPGKAPKVLMYAVSILQSGVPSRFSGSGSGADFTLTISSLQPEDFATYYCQQSYSSPLTFGGGTKVEIK
# B10: TCN-556 (5089_K12) (antibody, V domains shown)
# VH: QVQLVQSGAEVKKPGASVKVSCKASGYTFIGYDMHWVRQAPGQGLEWMGWINAKRGGTNYAQKFQGRVTMTRDTSISTAYMELNSLRSDDTAVYYCARGVGSRTTIFGVLNPEFDYWGQGTLVTVSS
# VL: QSALTQPPSASGSPGQSVTISCTGSSSDVGGYDYVSWYQQHPGKAPKLLIYEVTKRPSGVPDRFSGSKSGNTASLTVSGLQAEDEADYYCSSYAGNYNHVFGPGTKVTVL
# B11: TCN-552 (5249_I23) (antibody, V domains shown)
# VH: QVQVVQSGAEVKKPGSSVRVSCQASGGTFMNYAIIWVRRAPGQGLEWMGGIIPVFPTPNYAQMFQGRVTISTDESRSTSFLELTNLRYEDTAVYYCARRIYHGGNSGFDFWGQGTLVTVSS
# VL: EIVLTQSPATLSLSPGERATLSCRASQSVGNYLAWYQQKPGQAPRLLIYDSSNRAPGIPARFSGSGSGTDFTLTISSLAPEDFAVYYCQQRSKWPPMYSFGHGTKLEIK
# B12: TCN-550 (5096_F06) (antibody, V domains shown)
# VH: QVQLQESGPGLVKPSETLSLTCTVSGASINSHYWSWIRQPPGKGLEWIGYVYYSGSTTYNPSLKSRVTLSVDTSKNQFSLNLSSVTAADTAFYYCARHPYDVLTGSGDWFDPWGQGTLVTVSS
# VL: SYVLTQAPSVSVAPGQTARITCGGNAIGSKKVHWYQHKAGQAPVLVVYDDTDRPSGIPERFSGSNSWSTATLTINRVEAGDEADYYCQVWDFTIDHVVFGGGTKLTVL
# B13: TCN-551 (5243_D01) (antibody, V domains shown)
# VH: EVQLVQSGSEVKKPGESLKISCKGSGYSFSNYWIGWVRHMPGKGLEWMGIIYPGDSDTRYSPSFQGQVTMSADKSSSTVYLQWSSLKASDTAIYYCARRGGHSFGYGSGGDTHSEFDSWGQGTLVTVSS
# VL: QSVLTQSPSVSAAPGQKVTISCSGSDSNIGDYFVCWYQHLPGKPPQLLIYENNKRPSGIPDRFSGSKSGTSATLGITGIQTGDEADYYCATWDGSLSAWVFGGGTKLTVL
# B14: TCN-548 (5092_P01) (antibody, V domains shown)
# VH: QVQLQESGPGLVKPSETLSLTCTVSSGPMSDYYWSWIRQPPGKGLEWIGHVSVSHGGRTKSNPSVMSRVTISVETSKNQFSLKLTSVTAADTAVYYCARLNYYDRSGYHSPDGPSNNWFDPWGQGTLVTVSS
# VL: DIVMTQSPDSLAVSLGERATINCKSSQSVLYSSNNKNYLAWYQQKPGQPPKLLIYWASTRESGVPDRISGSGSGADFTLTISSLQAEDVAVYYCQQYFATPRTFGQGTKVEIK
# B15: TCN-549 (5092_P04) (antibody, V domains shown)
# VH: QVQLVQSGAEVKKPGASVKVSCKASGYTFTGYYMHWVRQAPGQGLEWMGWINPNSGDTNYAQKFQGRVTMTRDTSITTAYMELSSLRSDDTAVYYCARDSPYSSSWSFFDYWGQGPLVTVSS
# VL: B14 VL with N37S, Y38H, I68F, A75T, T80I, F98Y, A99F, T100S, R102L, Q106G
# Target: hemagglutinin on whole influenza A virions, A/Wisconsin/67/05 H3N2 (Influenza A virus …)
# Assay: not given
row,Binder,ELISA: Virus Binding (OD450)
1,B1,0.16
2,B2,0.12
3,B3,0.13
4,B4,0.13

# Target: hemagglutinin (HA) of influenza A/Solomon Islands/3/06 (H1N1) on whole virions (Influenza A virus A/Solomon …)
# Assay: not given
row,Binder,ELISA virus binding (OD450)
1,B5,3.6
2,B6,3.32
3,B7,1.95
4,B8,0.06
5,B9,0.06
6,B10,2.7
7,B11,3.57
8,B12,0.06
9,B13,3.35
10,B14,0.09
11,B15,0.09

# Target: T1, hemagglutinin (HA) of influenza A/Wisconsin/67/05 (H3N2) on whole virions (Influenza A virus …)
# T1 construct: whole, on cells
# Assay: ELISA; BCC supernatant on coated inactivated whole virions
row,Binder,ELISA virus binding (OD450)
1,B5,0.07
2,B6,0.47
3,B7,3.69
4,B8,1.09
5,B9,3.68
6,B10,0.06
7,B11,0.06
8,B12,3.65
9,B13,0.07
10,B14,3.62
11,B15,3.58

# Positions count from the first letter of the chain named.
